The source of these data is patent publication US8772502B2, “Alkylsulfinyl-substituted thiazolide compounds” (Romark Laboratories, L.C., priority 2010, dated 2014).

SMILES strings stand for the structures.

In one data set the test system is HCV replicon cell line, AVA5 (sub-genomic CON1, genotype 1b). Nature of the data set: Secondary HCV replicon assay, genotype 1B, antiviral activity. It counts as cell-based. As to conditions: CC50/EC50. The protocol: (§1) Antiviral activity of test compounds was assessed in a 3-day assay using the stably-expressing HCV replicon cell line, AVA5 (sub-genomic CON1, genotype 1b) [Korba, B. E. et al. Antiviral Res. 77, 56-63 (2008); Blight et al., Science 290, 1972-1974 (2000)] maintained as sub-confluent cultures on 96-well plates as previously described [Okuse et al., Antiviral Research 65, 23-34 (2005)]. Antiviral activity was determined by blot hybridization analysis of intracellular HCV RNA (normalized to the level of cellular B-actin RNA in each culture sample) and cytotoxicity was assessed by neutral red dye uptake after 3 days of treatment. Additional studies were performed using Huh7 cells containing another HCV replicon, H/FL-Neo, a genotype 1a full length construct [Blight et al., J. Virol. 77, 3181-3190 (2003)]. For studies involving human serum, standard culture medium (which contains 10% fetal bovine serum) and assay conditions were maintained.
(§2) EC50, EC90 and CC50 values (±standard deviations [S.D.]) were calculated by linear regression analysis using data combined from all treated cultures (Korba, B. E. et al. Antiviral Res. 77, 56-63 (2008)). […] Selectivity index (S.I.) was calculated as CC50/EC90 for HBV assays and CC50/EC50 for HCV assays.
On the technique in general: In antiviral work, replicon cells carry a viral genome segment that copies itself.
Take `C[S+]([O-])c1csc(NC(=O)c2ccccc2O)n1` (stereo not drawn) [Compound 2, 2-hydroxy-N-(4-(methylsulfinyl)thiazol-2-yl)benzamide]: the SI is given as over 45.5.
The compound `CC(=O)Oc1ccccc1C(=O)Nc1ncc([N+](=O)[O-])s1` [NTZ, Nitazoxanide] had an SI of 143.0.
`CS(=O)(=O)c1cnc(NC(=O)c2ccccc2O)s1` [RM4863] returned an SI of over 11.1.
The compound `O=C(Nc1ncc([N+](=O)[O-])s1)c1ccccc1O` [TIZ, Tizoxanide] displayed an SI of 142.0.

The subject of another data set is HCV replicon, H/FL-Neo, a genotype 1a full length construct. Nature of the data set: Secondary HCV replicon assay, genotype 1A, antiviral activity. As to conditions: CC50/EC50. The data set is classed as cell-based. The protocol:
as §1, §2
As for `C[S+]([O-])c1csc(NC(=O)c2ccccc2O)n1` (stereo not drawn) [Compound 2, 2-hydroxy-N-(4-(methylsulfinyl)thiazol-2-yl)benzamide], the SI is given as over 35.7.
The same measure, in the same setting: next, `CC(=O)Oc1ccccc1C(=O)Nc1ncc([N+](=O)[O-])s1` [NTZ, Nitazoxanide]: 149.0; `CS(=O)(=O)c1cnc(NC(=O)c2ccccc2O)s1` [RM4863]: over 12.3.
Still for that read-out and setting: next, `O=C(Nc1ncc([N+](=O)[O-])s1)c1ccccc1O` [TIZ, Tizoxanide]: 119.0.

The subject of the next data set is HCV replicon cell line, AVA5 (sub-genomic CON1, genotype 1b). Nature of the data set: Primary HCV replicon assay, antiviral activity (intracellular HCV RNA). It counts as cell-based. As to conditions: CC50/EC50. The protocol:
as §1, §2
`C[S+]([O-])c1csc(NC(=O)c2ccccc2O)n1` (stereo not drawn) [Compound 2, 2-hydroxy-N-(4-(methylsulfinyl)thiazol-2-yl)benzamide]: the SI is on record as 32.0.
The same measure, in the same setting: next, `CC(=O)Oc1ccccc1C(=O)Nc1ncc([N+](=O)[O-])s1` [NTZ, Nitazoxanide]: 148.0; `CS(=O)(=O)c1cnc(NC(=O)c2ccccc2O)s1` [RM4863]: 29.0.
Consider `O=C(Nc1ncc([N+](=O)[O-])s1)c1ccccc1O` [TIZ, Tizoxanide], for which the SI came out at 100.0.
